According to paper PMC5854701 (Scientific Reports, 2018):

Tested on: A/WSN/33 (H1N1)
Test: Antiviral plaque reduction assay
Conditions: 5 µM compound; for % plaque formation at 5 µM: plaque assay

Structure (SMILES)	antiviral activity in plaque assay (in words)	% plaque formation at 5 µM
O=c1[nH]c2ccccc2n1C1CCN(C(c2cccc3ccccc23)c2nnnn2C2CCCC2)CC1 (stereo not drawn)	not active	73.0% and 73.0 ± 6.5%
O=c1[nH]c2ccccc2n1C1CCN(C(c2ccsc2)c2nnnn2C2CCCCC2)CC1 (stereo not drawn)	–	73.9 ± 8.2%

Where “and” joins values, the source holds several entries; their conditions need not be identical. Identical values can stand only once. Some compounds may have been tested in ways that are not shown here.
